How the values were obtained:
[1] = tested on: A/H1N1 WT virus; details: baloxavir increasing 1 nM to 128 nM; diltiazem constant 25 μM; alone or in combination
[2] = tested on: recombinant A/H1N1 pdm09 wildtype (WT); details: diltiazem 90 μM (up to 48 h), baloxavir 10 nM (48 h and 72 h post-infection)
[3] = tested on: A/H1N1 pdm09 (A/Lyon/969/2009 H1N1); details: diltiazem 90 μM, baloxavir 10 nM, combination; 48 h and 72 h post-infection
[4] = tested on: A/H3N2 (A/Texas/50/2012 H3N2); details: diltiazem 90 μM, baloxavir 10 nM, combination; monotherapies up to 48 h post-infection
[5] = tested on: highly-pathogenic virus A/H5N1 sensitive or resistant to oseltamivir; details: cited from earlier work

SMILES | emergence of an A/H1N1 virus with the baloxavir resistance phenotype [1] | transepithelial resistance (TEER), integrity of infected epithelia [2] | transepithelial resistance (TEER), integrity of infected epithelia [3] | transepithelial resistance (TEER), integrity of infected epithelia [4] | protection of infected mice [5]
COc1ccc([C@@H]2Sc3ccccc3N(CCN(C)C)C(=O)[C@@H]2OC(C)=O)cc1.Cl [diltiazem] | did not induce the emergence | remain stable | remain stable | remain stable | –
NC(=O)c1nc(F)c[nH]c1=O [favipiravir] | – | – | – | – | effective to protect mice
